# Percent effect of library compounds

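Phenotypic screen: M. tuberculosis growth, glucose 7H9 medium, 3 days; the read-out is not stated. Compounds at 500 µM. The record gives no direction; compounds that gave an IC50 in retests scored well above the rest, so higher reads as more growth inhibition. Of about 18,000 compounds tested this way, about 1,400 (7.9%) reached 50% or more in at least one test.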

Values are the deposited “Percent Effect”, in %. The controls that fix the scale are not given in the record; negative values are as filed. The entries come from a sample that favours strong results.

compound | effect
Cc1cccc(CNC(=O)N2CCOC(C)C2)n1 (centres unmarked) | 1.583%
CN(C)c1noc(CNS(=O)(=O)c2ccccc2)n1 | 35.33%
CC1COc2ccccc2N1C(=O)c1cnsn1 (centres unmarked) | -28.11%
COCC(C)(N)C(=O)OC (centres unmarked) | 0.4379%
COCC(C)NC(=O)c1cccnc1OCC(F)(F)F (centres unmarked) | -5.225%
OCC(O)CSCc1c(Cl)ccc2cccnc12 (centres unmarked) | 18.78%
Cn1nccc1C1COCCN1 (centres unmarked) | -0.239%
CN(Cc1ccc(-n2cccn2)cc1)C(=O)[C@@H]1CCN1 | 27.53%
NCCCOc1ncc(C(F)(F)F)cc1Cl | 74.81%
Cc1c(C(=O)N2CCNC(=O)C2)oc2ccc(Cl)cc12 | 47.69%
CN(CC(=O)Nc1sccc1C(N)=O)Cc1ccco1 | 48.12%
CN(C)c1ccc(CN)cc1F | 18.48%
COc1cc(CCC(=O)Nc2cc[nH]n2)cc(OC)c1 | 29.09%
COCCS(=O)(=O)NCCCO | -5.205%
CC1(C)CN(c2ncccc2C#N)CCO1 | 8.731%
Cc1ccc(C(=O)N2CCOCC2CO)c(C)n1 (centres unmarked) | 7.336%
COC(=O)c1cccc(CNCCC(=O)N(C)C)c1 | 4.377%
N#CCc1cc(Cl)ccn1 | -11.35%
COc1ccc(Cl)c(S(=O)(=O)NCCC(C)N)c1 (centres unmarked) | 59.09%
COc1cc(OC)cc(-c2[nH][nH]c(=O)c2CCN)c1 | 43.47%
Cc1noc(OCC(=O)Nc2ccccc2)n1 | 7.765%
CCCS(=O)(=O)Nc1cccc(OCC)n1 | 2.924%
CCOc1cc(C)ccc1S(N)(=O)=O | 39.48%
CN1C(=O)CNc2ccccc21 | -29.21%
Cn1cc(-c2csc(NC3CCOCC3)n2)cn1 | 31.05%
Fc1ccc(-c2noc(CN3CCSCC3)n2)cc1 | -15.38%
COC(=O)CCCC(=O)N1CCCc2ccc(F)cc21 | 56.35%
O=C1CCCCCCN1CC(=O)N1CCCS1(=O)=O | 8.149%
Cc1nnc(SCC(=O)NC2CC2)n1-c1ccccc1 | 24.66%
CN(C)C(=O)CN1CCCC1c1ccc(F)cc1 (centres unmarked) | 66.6%
Nc1c[nH]nc1C(=O)NCc1cccc(Cl)c1 | 21.02%
CC(C)CC(C)N(C)CC(=O)NC(N)=O (centres unmarked) | -6.861%
Cn1cc(CNS(N)(=O)=O)cn1 | 7.18%
CC(C)(C)OC(=O)N1CCN(C2CCC(N)CC2)CC1 (centres unmarked) | 46.01%
COc1ccc(CNCCCN2CCCC2=O)cc1 | 0.04715%
Nc1ccc(N2CCCCC2)cn1 | 8.084%
OCCNC1CCN(c2ncc(Cl)cn2)CC1 | -5.608%
Cc1cc(O)nc(N2CCCCC2)n1 | 4.171%
O=C(CCOc1cccc(F)c1)NCC1CCCO1 (centres unmarked) | 38.93%

The last 3 entries again:

* OCCNC1CCN(c2ncc(Cl)cn2)CC1 | -5.608%
* Cc1cc(O)nc(N2CCCCC2)n1 | 4.171%
* O=C(CCOc1cccc(F)c1)NCC1CCCO1 (centres unmarked) | 38.93%

Measurements from “University of Dundee, Small-Polar-MMV Screening Library” (2021), ChEMBL document CHEMBL3988442.